Experimental data from ChEMBL document CHEMBL4665791 (J Med Chem, 2020).

Sequences of proteins named here, by UniProt entry; tags and fusion partners are left off. Residues count along the entry.
UniProt P0DPI0, 2-448 limits assumed: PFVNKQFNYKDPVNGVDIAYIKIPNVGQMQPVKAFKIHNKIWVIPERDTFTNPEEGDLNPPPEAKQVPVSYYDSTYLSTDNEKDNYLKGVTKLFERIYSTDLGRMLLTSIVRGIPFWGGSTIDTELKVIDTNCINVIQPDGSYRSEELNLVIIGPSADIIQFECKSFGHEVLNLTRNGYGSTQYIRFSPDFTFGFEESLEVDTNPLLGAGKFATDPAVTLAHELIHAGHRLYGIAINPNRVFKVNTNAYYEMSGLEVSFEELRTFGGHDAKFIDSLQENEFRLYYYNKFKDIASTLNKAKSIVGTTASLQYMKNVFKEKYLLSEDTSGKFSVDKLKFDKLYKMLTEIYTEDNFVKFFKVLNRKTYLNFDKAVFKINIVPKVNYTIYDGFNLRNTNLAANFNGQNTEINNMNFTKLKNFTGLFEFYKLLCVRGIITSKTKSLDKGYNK

Molecular target: Botulinum neurotoxin type A (Clostridium botulinum, UniProt P0DPI0)

## CS(=O)(=O)SCCCCCCCN(O)C(=O)/C=C/c1ccc(Cl)cc1Cl
  Ki: 88 µM
